The list shows a part of the results, in another mix than the full data. Active and inactive are the calls of the source.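 The calls were made as follows: active = activation above its plate's cutoff, the mean activation of the plate's test wells plus 3 SD (cut at about 12% in these data); inactive = the rest.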
What follows are compounds tested against Mucolipin-3 (Homo sapiens) (UniProt Q8TDD5) (assay: human TRPML3 channel agonists, primary screen, cell-based, HEK293 TRPML3-YFP, Fluo-8 calcium fluorescence, 3 µM (AID 1448;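 also: 0% = DMSO only wells and 100% = carbachol wells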)). Conditions: at 3 µM, active compounds read high, 100% = the carbachol control signal.
How it was run: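 Material: HEK293 cells stably carrying human TRPML3-YFP; compound dosing: single dose, 3 µM final nominal compound, 0.3% DMSO final; incubation: 1-h 37 °C dye load, 5-s basal, 120-s post-compound reads; technique: Fluo-8 intracellular calcium fluorescence, excitation 470-495 nm, emission 515-575 nm; read-out basis: percent activation from peak-to-basal fluorescence ratio, scaled between DMSO and carbachol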

The chains behind the UniProt entries cited, without tags or fusion partners. Where a name states a change or a piece, a line headed by the entry shows the natural chain unless it says otherwise.
UniProt Q8TDD5: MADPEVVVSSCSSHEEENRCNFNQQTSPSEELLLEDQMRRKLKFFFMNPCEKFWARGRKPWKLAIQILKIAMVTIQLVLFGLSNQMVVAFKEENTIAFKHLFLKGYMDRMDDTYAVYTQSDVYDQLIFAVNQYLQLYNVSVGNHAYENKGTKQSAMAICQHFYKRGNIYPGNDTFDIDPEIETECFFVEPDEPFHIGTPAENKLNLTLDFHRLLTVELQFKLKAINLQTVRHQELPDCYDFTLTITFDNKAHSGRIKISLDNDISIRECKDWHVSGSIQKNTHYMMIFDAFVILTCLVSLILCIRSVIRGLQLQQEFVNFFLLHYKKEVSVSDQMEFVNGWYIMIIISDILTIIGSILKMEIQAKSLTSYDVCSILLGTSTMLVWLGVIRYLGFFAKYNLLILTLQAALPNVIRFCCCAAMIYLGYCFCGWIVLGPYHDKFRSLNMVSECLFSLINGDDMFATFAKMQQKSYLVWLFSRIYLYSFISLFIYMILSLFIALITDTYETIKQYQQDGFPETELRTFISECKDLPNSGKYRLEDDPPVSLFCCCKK

Compound | activation
COc1ccc(N/C(=N/P(=O)(N2CCOCC2)N2CCOCC2)N2CCOCC2)cc1 | inactive: 0.95%
O=[As](O)(c1ccc(O)cc1)c1ccccc1O | inactive: -0.04%
C[As](=O)(O)c1cccc(C(=O)O)c1 | inactive: 0.66%
Cc1ccc(OP(=O)(Nc2ccc([N+](=O)[O-])cn2)Oc2ccc(C)cc2)cc1 | inactive: 0.35%
Cc1ccc2nc3c(c(C)c2c1)CC(C(Cl)Cl)S3 (stereo not given) | inactive: -0.36%
ClCCSc1nnc(-c2cccnc2)o1 | inactive: 0.81%
CC(C)c1ccc(OP(=O)(Nc2ccccn2)Oc2ccccc2F)cc1 (stereo not given) | inactive: -0.01%
O=[N+]([O-])c1cc([N+](=O)[O-])c(-c2ccn[nH]2)s1 | inactive: 0.1%
CC(C)NC(=O)NP(=O)(Oc1ccccc1)Oc1ccccc1 | inactive: 0.48%
CCN(CC)C(=S)SC(NC=O)C(Cl)(Cl)Cl (stereo not given) | inactive: 0.28%
CCOC(=O)Nc1ccc([As](=O)(O)O)c(O)c1 | inactive: 0.74%
Cc1cc(SC(NC(=O)c2ccccc2)C(Cl)(Cl)Cl)nc(C(C)C)n1 (stereo not given) | inactive: 0.43%
CCOC(=O)Nc1cccc([As](=O)(O)O)c1 | inactive: -0.68%
Cc1cc(SC(NC=O)C(Cl)(Cl)Cl)ncn1 (stereo not given) | inactive: -0.2%
O=P(Nc1ccccn1)(c1cccc2ccccc12)c1cccc2ccccc12 | inactive: 1.37%
O=[N+]([O-])c1ccc(Nc2ccc(Oc3ccc([N+](=O)[O-])cc3[N+](=O)[O-])cc2)c([N+](=O)[O-])c1 | inactive: 0.67%
COP1(=S)c2c(C)nn(CCC#N)c2N=C(c2ccc(F)cc2)N1C (stereo not given) | inactive: 1.42%
O=C(COc1ccccc1)OC1CN2CCC1CC2 (stereo not given) | inactive: 0.21%
CCOC(=O)c1ccc(NC(=O)C(C)(CCl)SC)cc1 (stereo not given) | inactive: 1.44%
CCC(C)N(CC(C)C)C(=S)SC(NC(C)=O)C(Cl)(Cl)Cl (stereo not given) | inactive: -0.11%
